Anti-infective test results gathered from many reports (values: NIAID ChemDB through PubChem).

Percent inhibition refers to the dose given; in toxicity tests it is the harm to the cells.

structure | endpoint | target | cell line | strain or isolate | kind | read by | species | dose | value
C/C(O)=C(\C=N\C(=S)Nc1ccccc1)C(=O)Nc1ccccc1C | MIC bound |  |  | H37Rv | culture | BACTEC | Mycobacterium tuberculosis |  | >6.25 µg/mL
COc1ccccc1N | MIC |  |  | H37Rv | culture |  | Mycobacterium tuberculosis |  | 100 µg/mL
COc1cc(Br)c(CC(=O)c2cn(C(=O)Cc3cc(OC)c(OC)cc3Br)c3ccc(Br)cc23)cc1OC | MIC bound |  |  | H37Rv | culture | resazurin | Mycobacterium tuberculosis |  | >6.25 µg/mL
Cc1cccc(-c2cncc(N3CCN(c4cccc(C(F)(F)F)c4)CC3)n2)c1 | inhibition | UL97 kinase |  |  | target |  | Cytomegalovirus | 10 µM | >15%
Cc1ccc(C(C)C)cc1OCCOCC[n+]1ccccc1 | MIC |  |  | H37Rv | culture |  | Mycobacterium tuberculosis |  | >100 µg/mL
Cc1ccc(N2CCN(c3cncc(-c4cc(C)cc(C)c4)n3)CC2)cc1 | inhibition | UL97 kinase |  |  | target |  | Cytomegalovirus | 10 µM | >15%
C[C@@H]1C[C@H]2[C@@H](CCCN2C(=O)c2ccccc2)CC1=O | MIC bound |  |  | H37Rv | culture | resazurin | Mycobacterium tuberculosis |  | >6.25 µg/mL
O=C1CSC(=O)N1c1ccccc1 | MIC |  |  | H37Rv | culture |  | Mycobacterium tuberculosis |  | 100 µg/mL
CCN1CCCc2cc3c(C(F)(F)F)cc(=O)oc3cc21 | MIC |  | VERO | H37Rv | culture | BACTEC | Mycobacterium tuberculosis |  | >12.5 µg/mL
Fc1ccc(N2CCCCC2)c(NC(=S)c2ccncc2)c1 | inhibition | Ros |  |  | host protein | kinase activity |  | 10 µM | 22%
COc1cccc(N2CCN(c3cncc(-c4csc5ccccc45)n3)CC2)c1 | inhibition | UL97 kinase |  |  | target |  | Cytomegalovirus | 1 µM | <50%
CC(C)c1ccc(/C=C2\CSC/C(=C/c3ccc(C(C)C)cc3)C2=O)cc1 | inhibition |  |  | H37Rv | culture | BACTEC | Mycobacterium tuberculosis | 12.5 µg/mL | 0%
OCc1ccc(-c2cncc(N3CCN(c4cccc(C(F)(F)F)c4)CC3)n2)cc1 | IC50 | UL97 kinase |  |  | target |  | Cytomegalovirus |  | <100 µM
CC(=O)Nc1ccc(N)cc1 | MIC |  |  | H37Rv | culture |  | Mycobacterium tuberculosis |  | 25 µg/mL
CC1(C)OC2(CC1C1(C)C=CC(=O)O1)CC1(O)C(CCC34CC13C(=O)OC4c1ccoc1)O2 | inhibition |  |  | H37Rv | culture | BACTEC | Mycobacterium tuberculosis | 12.5 µg/mL | 12%
Nc1ccc(N=Nc2ccc(C(=O)O)cc2)cc1 | MIC |  |  | H37Rv | culture |  | Mycobacterium tuberculosis |  | >100 µg/mL
CN(C)c1ccc(-c2cncc(N3CCN(c4ccccc4F)CC3)n2)cc1 | inhibition | UL97 kinase |  |  | target |  | Cytomegalovirus | 1 µM | <50%
CC(=O)Nc1ccc(N=Nc2ccc(C(=O)O)cc2)cc1 | MIC |  |  | H37Rv | culture |  | Mycobacterium tuberculosis |  | >100 µg/mL
Oc1cc2c(cc1O)C1c3ccc(O)c(O)c3OCC1(O)C2 | MIC bound |  |  | H37Rv | culture | BACTEC | Mycobacterium tuberculosis |  | >128 µg/mL
COc1ccc(-c2cncc(N3CCN(c4ccc(C(C)=O)cc4)CC3)n2)cc1F | inhibition | UL97 kinase |  |  | target |  | Cytomegalovirus | 1 µM | <50%
Cc1ccc2ccccc2c1NC(=O)CCC(=O)O | MIC |  |  | H37Rv | culture |  | Mycobacterium tuberculosis |  | 100 µg/mL

A second listing of 2 rows from above:

| structure | endpoint | target | cell line | strain or isolate | kind | read by | species | dose | value |
|---|---|---|---|---|---|---|---|---|---|
| CCN1CCCc2cc3c(C(F)(F)F)cc(=O)oc3cc21 | MIC |  | VERO | H37Rv | culture | BACTEC | Mycobacterium tuberculosis |  | >12.5 µg/mL |
| COc1ccc(-c2cncc(N3CCN(c4ccc(C(C)=O)cc4)CC3)n2)cc1F | inhibition | UL97 kinase |  |  | target |  | Cytomegalovirus | 1 µM | <50% |

Conditions beyond the fields shown may differ between rows. Blank or dashed fields: not listed here. ICn: concentration for n% inhibition. MIC bound comes from a single tested concentration.